Test [1] addresses C215Fab-SEA (not stated | not stated (staphylococcal)) (UniProt P0A0L2). The experiment in a line: SPR.
Test [2] has as its target 5T4Fab(V18)-SEA (not stated | not stated (staphylococcal)) (UniProt P0A0L2). As to the kind of experiment: SPR.

As for “soluble TCR reagent TRBV7-9 (disulfide-linked αβ-heterodimer)”, the Kd in test [1] amounted to 1200 nM; in test [2], 730 nM.
